The experiment concerns the target lethal factor (LF) (Bacillus anthracis, UniProt P15917). The experiment can be described thus: biochemical.

Chains of the proteins cited; added tags and fusions are not shown. Residues count along the entry.
UniProt P15917, 34-809 limits assumed: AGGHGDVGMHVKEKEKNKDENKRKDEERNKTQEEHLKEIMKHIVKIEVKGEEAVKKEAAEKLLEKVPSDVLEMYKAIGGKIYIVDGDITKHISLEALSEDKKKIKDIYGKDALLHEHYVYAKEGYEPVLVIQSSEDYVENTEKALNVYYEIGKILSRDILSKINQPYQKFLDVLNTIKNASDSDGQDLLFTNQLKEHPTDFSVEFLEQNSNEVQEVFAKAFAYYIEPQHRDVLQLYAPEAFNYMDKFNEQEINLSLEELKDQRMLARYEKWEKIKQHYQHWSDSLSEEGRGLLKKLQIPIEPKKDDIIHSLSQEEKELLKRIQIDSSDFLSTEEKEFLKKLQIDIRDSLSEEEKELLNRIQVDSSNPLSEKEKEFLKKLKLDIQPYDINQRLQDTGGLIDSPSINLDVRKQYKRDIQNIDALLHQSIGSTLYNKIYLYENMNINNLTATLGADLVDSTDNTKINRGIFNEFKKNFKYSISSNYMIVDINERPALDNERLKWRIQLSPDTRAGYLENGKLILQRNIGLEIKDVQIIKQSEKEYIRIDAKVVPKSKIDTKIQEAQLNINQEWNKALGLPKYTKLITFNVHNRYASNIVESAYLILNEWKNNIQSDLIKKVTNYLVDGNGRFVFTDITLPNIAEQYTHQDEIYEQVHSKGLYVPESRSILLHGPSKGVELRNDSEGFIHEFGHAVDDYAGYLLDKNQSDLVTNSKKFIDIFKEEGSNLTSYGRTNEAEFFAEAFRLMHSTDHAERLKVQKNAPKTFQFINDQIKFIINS

This note sets out measurements from patent US7947717B2 (priority 2008, dated 2011).

For the compound `O=C(O)CN1C(=O)C(=Cc2cc(-c3ccc(Cl)cc3)on2)SC1=S` [Compound 24, 2-(5-((5-(4-chlorophenyl)isoxazol-3-yl)methylene)-4-oxo-2-thioxothiazolidin-3-yl)acetic acid], the IC50 was 5.2 µM.
